{"source": "paper PMC4286435", "key": {"[1]": {"system": "CC(C)(COP(=O)(O)OP(=O)(O)OC[C@H]1O[C@@H](n2cnc3c(N)ncnc32)[C@H](O)[C@@H]1OP(=O)(O)O)[C@@H](O)C(=O)NCCC(=O)NCCS", "assay": "purified protein", "conditions": "pH 8.1; 30.0 °C"}, "[2]": {"system": "C[C@H](C(=O)CC(=O)SCCNC(=O)CCNC(=O)[C@H](O)C(C)(C)COP(=O)(O)OP(=O)(O)OC[C@H]1O[C@@H](n2cnc3c(N)ncnc32)[C@H](O)[C@@H]1OP(=O)(O)O)[C@H]1CC[C@H]2[C@@H]3CCC4=CC(=O)CC[C@]4(C)[C@H]3CC[C@]12C", "assay": "purified protein", "conditions": "pH 8.1; 30.0 °C"}}}
{"substance": "FadA5 (Mycobacterium tuberculosis H37Rv)", "values": [{"measurement": "Km", "setting": "[1]", "value": "3.10 ± 0.39", "unit": "µM"}, {"measurement": "Km", "setting": "[2]", "value": "11.8 ± 1.4", "unit": "µM"}, {"measurement": "kcat/Km", "setting": "[2]", "value": 61400, "unit": "M⁻¹ s⁻¹"}]}
